From US10206902B2, “Mono- or di-substituted indoles as dengue viral replication inhibitors” (priority 2014, dated 2019)

Tested on: DENV-2 16681 strain
Test: DENV-2 antiviral assay (eGFP-labelled virus in Vero cells)
Assay type: cell-based, Dengue virus
Conditions: SI=CC50/EC50, DENV-2 antiviral assay
Protocol: The antiviral activity of all the compounds of the invention was tested against DENV-2 16681 strain which was labeled with enhanced green fluorescent protein (eGPF). The culture medium consists of minimal essential medium supplemented with 2% of heat-inactivated fetal calf serum, 0.04% gentamycin (50 mg/mL) and 2 mM of L-glutamine. Vero cells, obtained from ECACC, were suspended in culture medium and 25 μL was added to 384-well plates (2500 cells/well), which already contain the antiviral compounds. Typically, these plates contain a 4-fold serial dilution of 9 dilution steps of the test compound at 200 times the final concentration in 100% DMSO (200 nL). In addition, each compound concentration is tested in quadruplicate (final concentration range: 25 μM-0.00038 μM). Finally, each plate contains wells which are assigned as virus controls (containing cells and virus in the absence of compound), cell controls (containing cells in the absence of virus and compound) and medium controls (containing medium in the absence of cells, virus and compounds). To the wells assigned as medium control, 25 μL of culture medium was added instead of Vero cells. Once the cells were added to the plates, the plates were incubated for 30 minutes at room temperature to allow the cells to distribute evenly within the wells. Next, the plates were incubated in a fully humidified incubator (37° C., 5% CO2) until the next day. Then, DENV-2 strain 16681, labeled with eGFP, was added at a multiplicity of infection (MOI) of 0.5. Therefore, 15 μL of virus suspension was added to all the wells containing test compound and to the wells assigned as virus control. In parallel, 15 μL of culture medium was added to the medium and cell controls. Next, the plates were incubated for 3 days in a fully humidified incubator (37° C., 5% CO2). At the day of the read out, the eGFP fluorescence was measured using an automated fluorescence microscope at 488 nm (blue laser). Using an in-house LIMS system, inhibition dose response curves for each compound were calculated and the half maximal effective concentration (EC50) was determined. Therefore, the percent inhibition (I) for every test concentration is calculated using the following formula: I=100*(ST−SCC)/(SVC−SCC); ST, SCC and SVC are the amount of eGFP signal in the test compound, cell control and virus control wells, respectively. The EC50 represents the concentration of a compound at which the virus replication is inhibited with 50%, as measured by a 50% reduction of the eGFP fluorescent intensity compared to the virus control. The EC50 is calculated using linear interpolation (Table 1).

Row | SMILES | SI
1 | COc1cc(NC(C(=O)c2c[nH]c3cc(F)ccc23)c2ccc(F)cc2OC)cc(OCCO)c1 (racemic) [Compound 1, 1-(6-fluoro-1H-indol-3-yl)-2-(4-fluoro-2-methoxyphenyl)-2-((3-(2-hydroxyethoxy)-5-methoxyphenyl)amino)ethanone] | >1564
2 | COc1cc(NC(C(=O)c2c[nH]c3c(C)c(F)ccc23)c2ccc(F)cc2OC)cc(OCCO)c1 (racemic) [Compound 2, 2-(4-fluoro-2-methoxyphenyl)-1-(6-fluoro-7-methyl-1H-indol-3-yl)-2-((3-(2-hydroxyethoxy)-5-methoxyphenyl)amino)ethanone] | 1291
3 | COc1cc(NC(C(=O)c2c[nH]c3c(C)c(Cl)ccc23)c2ccc(F)cc2OC)cc(OCCO)c1 (racemic) [Compound 3, 1-(6-chloro-7-methyl-1H-indol-3-yl)-2-(4-fluoro-2-methoxyphenyl)-2-((3-(2-hydroxyethoxy)-5-methoxyphenyl)amino)ethanone] | 2915
4 | COc1cc(NC(C(=O)c2c[nH]c3c(F)c(F)ccc23)c2ccc(F)cc2OC)cc(OCCO)c1 (racemic) [Compound 5, 1-(6,7-difluoro-1H-indol-3-yl)-2-(4-fluoro-2-methoxyphenyl)-2-((3-(2-hydroxyethoxy)-5-methoxyphenyl)amino)ethanone] | 586
5 | COc1cc(NC(C(=O)c2c[nH]c3cc(OC)c(F)cc23)c2ccc(F)cc2OC)cc(OCCO)c1 (racemic) [Compound 7, 2-(4-fluoro-2-methoxyphenyl)-1-(5-fluoro-6-methoxy-1H-indol-3-yl)-2-((3-(2-hydroxyethoxy)-5-methoxyphenyl)amino)ethanone] | 1049
6 | COc1cc(NC(C(=O)c2c[nH]c3c(Cl)c(OC)ccc23)c2ccc(F)cc2OC)cc(OCCO)c1 (racemic) [Compound 8, 1-(7-chloro-6-methoxy-1H-indol-3-yl)-2-(4-fluoro-2-methoxyphenyl)-2-((3-(2-hydroxyethoxy)-5-methoxyphenyl)amino)ethanone] | 1733
7 | COc1cc(NC(C(=O)c2c[nH]c3c(C)cc(F)cc23)c2ccc(F)cc2OC)cc(OCCO)c1 (racemic) [Compound 9, 2-(4-fluoro-2-methoxyphenyl)-1-(5-fluoro-7-methyl-1H-indol-3-yl)-2-((3-(2-hydroxyethoxy)-5-methoxyphenyl)amino)ethanone] | 794
8 | COc1cc(NC(C(=O)c2c[nH]c3cc(F)c(F)cc23)c2ccc(F)cc2OC)cc(OCCO)c1 (racemic) [Compound 10, 1-(5,6-difluoro-1H-indol-3-yl)-2-(4-fluoro-2-methoxy-phenyl)-2-((3-(2-hydroxyethoxy)-5-methoxyphenyl)amino)ethanone] | 1362
9 | COc1cc(NC(C(=O)c2c[nH]c3c(C)c(OC)ccc23)c2ccc(F)cc2OC)cc(OCCO)c1 (racemic) [Compound 11, 2-(4-fluoro-2-methoxyphenyl)-2-((3-(2-hydroxyethoxy)-5-methoxyphenyl)amino)-1-(6-methoxy-7-methyl-1H-indol-3-yl)ethanone] | 4455
10 | COc1cc(NC(C(=O)c2c[nH]c3cc(F)ccc23)c2ccc(F)cc2OC)cc(OCCO)c1 (single isomer, unassigned) [Compound 1B, 1-(6-fluoro-1H-indol-3-yl)-2-(4-fluoro-2-methoxyphenyl)-2-((3-(2-hydroxyethoxy)-5-methoxyphenyl)amino)ethanone] | 18
11 | COc1cc(NC(C(=O)c2c[nH]c3c(C)c(F)ccc23)c2ccc(F)cc2OC)cc(OCCO)c1 (single isomer, unassigned) [Compound 2A, 2-(4-fluoro-2-methoxyphenyl)-1-(6-fluoro-7-methyl-1H-indol-3-yl)-2-((3-(2-hydroxyethoxy)-5-methoxyphenyl)amino)ethanone] | 8.1
12 | COc1cc(NC(C(=O)c2c[nH]c3c(C)c(Cl)ccc23)c2ccc(F)cc2OC)cc(OCCO)c1 (single isomer, unassigned) [Compound 3B, 1-(6-chloro-7-methyl-1H-indol-3-yl)-2-(4-fluoro-2-methoxyphenyl)-2-((3-(2-hydroxyethoxy)-5-methoxyphenyl)amino)ethanone] | 32
13 | COc1cc(NC(C(=O)c2c[nH]c3cc(Cl)ccc23)c2ccc(F)cc2OC)cc(OCCO)c1 (single isomer, unassigned) [Compound 4B, 1-(6-chloro-1H-indol-3-yl)-2-(4-fluoro-2-methoxyphenyl)-2-((3-(2-hydroxyethoxy)-5-methoxyphenyl)amino)ethanone] | 20
14 | COc1cc(NC(C(=O)c2c[nH]c3c(F)c(F)ccc23)c2ccc(F)cc2OC)cc(OCCO)c1 (single isomer, unassigned) [Compound 5A, 1-(6,7-difluoro-1H-indol-3-yl)-2-(4-fluoro-2-methoxyphenyl)-2-((3-(2-hydroxyethoxy)-5-methoxyphenyl)amino)ethanone] | 17
15 | COc1cc(NC(C(=O)c2c[nH]c3cc(OC)c(C)cc23)c2ccc(F)cc2OC)cc(OCCO)c1 (single isomer, unassigned) [Compound 6B, 2-(4-fluoro-2-methoxyphenyl)-2-((3-(2-hydroxyethoxy)-5-methoxyphenyl)amino)-1-(6-methoxy-5-methyl-1H-indol-3-yl)ethanone] | 33
16 | COc1cc(NC(C(=O)c2c[nH]c3cc(OC)c(F)cc23)c2ccc(F)cc2OC)cc(OCCO)c1 (single isomer, unassigned) [Compound 7B, 2-(4-fluoro-2-methoxyphenyl)-1-(5-fluoro-6-methoxy-1H-indol-3-yl)-2-((3-(2-hydroxyethoxy)-5-methoxyphenyl)amino)ethanone] | 39
17 | COc1cc(NC(C(=O)c2c[nH]c3c(Cl)c(OC)ccc23)c2ccc(F)cc2OC)cc(OCCO)c1 (single isomer, unassigned) [Compound 8B, 1-(7-chloro-6-methoxy-1H-indol-3-yl)-2-(4-fluoro-2-methoxyphenyl)-2-((3-(2-hydroxyethoxy)-5-methoxyphenyl)amino)ethanone] | 59
18 | COc1cc(NC(C(=O)c2c[nH]c3c(C)cc(F)cc23)c2ccc(F)cc2OC)cc(OCCO)c1 (single isomer, unassigned) [Compound 9A, 2-(4-fluoro-2-methoxyphenyl)-1-(5-fluoro-7-methyl-1H-indol-3-yl)-2-((3-(2-hydroxyethoxy)-5-methoxyphenyl)amino)ethanone] | 14
19 | COc1cc(NC(C(=O)c2c[nH]c3cc(F)c(F)cc23)c2ccc(F)cc2OC)cc(OCCO)c1 (single isomer, unassigned) [Compound 10A, 1-(5,6-difluoro-1H-indol-3-yl)-2-(4-fluoro-2-methoxy-phenyl)-2-((3-(2-hydroxyethoxy)-5-methoxyphenyl)amino)ethanone] | 19
20 | COc1cc(NC(C(=O)c2c[nH]c3c(C)c(OC)ccc23)c2ccc(F)cc2OC)cc(OCCO)c1 (single isomer, unassigned) [Compound 11B, 2-(4-fluoro-2-methoxyphenyl)-2-((3-(2-hydroxyethoxy)-5-methoxyphenyl)amino)-1-(6-methoxy-7-methyl-1H-indol-3-yl)ethanone] | 28
21 | COc1cc(NC(C(=O)c2c[nH]c3c(F)cc(C)cc23)c2ccc(F)cc2OC)cc(OCCO)c1 (single isomer, unassigned) [Compound 12A, 2-(4-fluoro-2-methoxyphenyl)-1-(7-fluoro-5-methyl-1H-indol-3-yl)-2-((3-(2-hydroxyethoxy)-5-methoxyphenyl)amino)ethanone] | 10
